Results on 1 substance are retold here after patent publication EP4563146A1 (IRBM S.P.A., priority 2023, dated 2025).

The target of this assay is DEN2V NS2B-G4SG4-NS3 serine protease (Dengue virus type 2, UniProt Q91H74). Description: DEN2V protease inhibition assay. Conditions: read-out: Dengue 2 - NS3 protease.

For “((3-Cyclopropyl-5-(2-(phenylsulfonyl)-acetamido)phenyl)carbamoyl)(3-((1R,4R)-4-((dimethylamino)methyl)cyclohexyl)-1,2,3-oxadiazol-3-ium-5-yl)amide [Example 150]”, the IC50 lay within 100 to 1000 nM.
